Experimental data published in the supplement of paper PMC12637763.
Positions count from the first letter of the chain named. Some of the results follow. Env chains of viruses from a treatment-interruption trial, translated from the printed DNA. IC50 / IC80 of two broadly neutralizing antibodies; lower = more sensitive virus; >50 µg/ml means not reached and <0.001 µg/ml is below the lowest dose. No active / inactive call.

What was measured:
[1] = target: antibody 10-1074; test: neutralization IC50; higher = virus less sensitive to the antibody
Protocol: (§1)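 Pseudovirus bearing the Env chain mixed with antibody, from 50 µg/ml in fivefold dilutions, on TZM-bl reporter cells, in duplicate.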

[2] = target: antibody 3BNC117; test: as above
Protocol: as §1

[3] = target: antibody 10-1074; test: neutralization IC80; higher = virus less sensitive to the antibody
Protocol: as §1

[4] = target: antibody 3BNC117; test: as above
Protocol: as §1

B1: HIV-1 Env, rebound clone, antibody arm (protein)
chain: MKVRGMKRNYQHLWGWGTMLLFWMIIMCKAAGNLWVTVYYGVPVWRDAETTLFCASDAKAYDKEVHNVWATHACVPTDPNPQEVRLENVTENFNMWENNMVEQMQTDIISLWDQSLKPCVKLTPLCVTLECTEPKLNSSTSNNSLSSTSNNSQYEEMKNCSFNMTTELRDKQKKVYSLFYKLDIVETDDNSSRYRLINCNTSTLTQACPKVTFKPIPIYYCAPAGFAILKCNDPQFNGTGPCTNVSTVQCTHGIKPVVSTQLLLNGSLAKEQVMIRSKNITDNSKTIIVQLKKPVNITCIRPGNNTRTSIRIGPGQAFYATGEITGDIRKAHCNVSRAEWNRTLQEISTQLQGYFNNKTIIFKNSSGGDLEVTTHSFNCGGEFFYCNTTKLFNSTWYGNETVINGTEASENITLQCRIKQIINMWQRVGQAMYAPPIRGEIRCESNITGLLLTRDGGGGNSSNNETFRPTGGDMRDNWRSELYKYKVVQVEPIGIAPTPAKRRVVEREKRAVGLGAAFLGFLGAAGSTMGAASLTLTVQARQLLSGIVQQQSNLLRAIEAQQHLLKLTVWGIKQLQARVLAVERYLRDQQLLGIWGCSGKLICTTAVPWNSSWSNKSYKDIWDNMTWMQWDKEVLNYTSIIYSLLEESQNQQEKNEQDLLALDKWASLWSWFDISKWLWYIKIFIMIVGGLIGLRIVFTVLSIINRVRQGYSPLSLQTLTPHPEEPDRPGRINEEGGEQDKGRSIRLVNGFLALAWDDLRSLCLFSYHRLRDFISIAARTVELLGRSSLKGLRLGWEGLKYLGNLLGYWSRELKNSAINLIDTIAIAVAGWTDRVIEIVQGSCRAIRNIPRRIRQGAEKALQ
neutralization IC50 [1]: 0.187 µg/mL | neutralization IC50 [2]: 0.085 µg/mL | neutralization IC80 [3]: 0.876 µg/mL | neutralization IC80 [4]: 0.284 µg/mL

B2: HIV-1 Env, rebound clone, antibody arm (protein)
chain: B1 chain with D189N, K214E, N464K, D473N
neutralization IC50 [1]: 0.074 µg/mL | neutralization IC50 [2]: 0.025 µg/mL | neutralization IC80 [3]: 0.476 µg/mL | neutralization IC80 [4]: 0.067 µg/mL

B3: HIV-1 Env, rebound clone, antibody arm (protein)
chain: B1 chain with D189N, K214E, A827V
neutralization IC50 [1]: 0.095 µg/mL | neutralization IC50 [2]: 0.04 µg/mL | neutralization IC80 [3]: 0.672 µg/mL | neutralization IC80 [4]: 0.106 µg/mL

B4: HIV-1 Env, rebound clone, antibody arm (protein)
chain: B1 chain with D189N, N200T, K214E
neutralization IC50 [1]: 0.209 µg/mL | neutralization IC50 [2]: 0.434 µg/mL | neutralization IC80 [3]: 1.53 µg/mL | neutralization IC80 [4]: 1.44 µg/mL

B5: HIV-1 Env, rebound clone, antibody arm (protein)
chain: B1 chain with D189N, N200T, K214E, M686I
neutralization IC50 [1]: 0.158 µg/mL | neutralization IC50 [2]: 0.497 µg/mL | neutralization IC80 [3]: 1.35 µg/mL | neutralization IC80 [4]: 2.18 µg/mL

B6: HIV-1 Env, rebound clone, antibody arm (protein)
chain: B1 chain with F22L, S141N, D189N, K214E
neutralization IC50 [1]: 0.109 µg/mL | neutralization IC50 [2]: 0.064 µg/mL | neutralization IC80 [3]: 0.594 µg/mL | neutralization IC80 [4]: 0.178 µg/mL
